Assay results: US20190365774A1, “COMBINATION THERAPY OF BACE-1 INHIBITOR AND ANTI-N3PGLU ABETA ANTIBODY” (Eli Lilly and Company, priority 2016, published 2019)

Target: T1, Aβ […] peptide (Homo sapiens)
T1 construct: flowing pE3-42 Aβ peptide or Aβ 1-40 peptide
Assay: Binding by surface plasmon resonance (BIACORE 3000)
Conditions: 25° C., HBS-EP buffer, peptide 100 nM down to 3.125 nM
Method: The binding affinity and kinetics of an anti-[…] […] The binding affinity is measured by capturing the anti-[…] Aβ antibody via immobilized protein A on a BIACORE® CMS chip, and flowing pE3-42 Aβ peptide or Aβ 1-40 peptide, starting from 100 nM in 2-fold serial dilution down to 3.125 nM. The experiments are carried out at 25° C. in HBS-EP buffer (GE Healthcare BR100669; 10 mM HEPES, 150 mM NaCl, 3 mM EDTA, 0.05% surfactant P20, pH 7.4). For each cycle, the antibody is captured with 5 μL injection of antibody solution at a 10 μg/mL concentration with 10 μL/min. flow rate. The peptide is bound with 250 μL injection at 50 μL/min, and then dissociated for 10 minutes. The chip surface is regenerated with 5 μL injection of glycine buffer at pH 1.5 at 10 μL/mL flow rate. The data is fit to a 1:1 Langmiur binding model to derive kon, koff, and to calculate KD.

Row | Molecule | binding to Aβ 1-40
1 | Antibody I: anti-N3pGlu Abeta antibody, light chain SEQ ID NO: 12 and heavy chain SEQ ID NO: 11 (antibody) heavy: QVQLVQSGAEVKKPGSSVKVSCKASGYTFTDYYINWVRQAPGQGLEWMGWINPGSGNTKYNEKFKGRVTITADESTSTAYMELSSLRSEDTAVYYCTREGETVYWGQGTLVTVSSASTKGPSVFPLAPSSKSTSGGTAALGCLVKDYFPEPVTVSWNSGALTSGVHTFPAVLQSSGLYSLSSVVTVPSSSLGTQTYICNVNHKPSNTKVDKKV[sequence of human IgG1 Fc not given] light: DVVMTQSPLSLPVTLGQPASISCKSSQSLLYSRGKTYLNWFQQRPGQSPRRLIYDVSKLDSGVPDRFSGSGSGTDFTLKISRVEAEDVGVYYCVQGTHYPFTFGQGTKLEIKRTVAAPSVFIFPPSDEQLKSGTASVVCLLNNFYPREAKVQWKVDNALQSGNSQESVTEQDSKDSTYSLSSTLTLSKADYEKHKVYACEVTHQGLSSPVTKSFNRGEC | No appreciable binding
2 | Antibody II: anti-N3pGlu Abeta antibody, light chain SEQ ID NO: 13 and heavy chain SEQ ID NO: 11 (antibody) heavy: QVQLVQSGAEVKKPGSSVKVSCKASGYTFTDYYINWVRQAPGQGLEWMGWINPGSGNTKYNEKFKGRVTITADESTSTAYMELSSLRSEDTAVYYCTREGETVYWGQGTLVTVSSASTKGPSVFPLAPSSKSTSGGTAALGCLVKDYFPEPVTVSWNSGALTSGVHTFPAVLQSSGLYSLSSVVTVPSSSLGTQTYICNVNHKPSNTKVDKKV[sequence of human IgG1 Fc not given] light: DIQMTQSPSTLSASVGDRVTITCKSSQSLLYSRGKTYLNWLQQKPGKAPKLLIYAVSKLDSGVPSRFSGSGSGTEFTLTISSLQPDDFATYYCVQGTHYPFTFGQGTKLEIKRTVAAPSVFIFPPSDEQLKSGTASVVCLLNNFYPREAKVQWKVDNALQSGNSQESVTEQDSKDSTYSLSSTLTLSKADYEKHKVYACEVTHQGLSSPVTKSFNRGEC | No appreciable binding
